The source of these data is US20240408065A1, “CYANO COMPOUND, AND PREPARATION METHOD THEREFOR AND USE THEREOF” (SHANGHAI INSTITUTE OF MATERIA MEDICA, CHINESE ACADEMY OF …, priority 2021, published 2024).

The subject of the assay is SARS-CoV-2 Delta strain (B.1.617.2). The assay can be described thus: microbe, parasite or virus in culture. To be noted: Severe acute respiratory syndrome coronavirus 2, Vero C1008.

In turn, `CC(C)(C)[C@H](NC(=O)C(F)(F)F)C(=O)N1CC2(C[C@H]1C(=O)N[C@H](C#N)C[C@@H]1CCNC1=O)SCCS2` [Compound 2] gave an IC50 of 40 nM.

Broadly, the IC50 is the midpoint of a concentration-inhibition curve.
